Results of unrelated studies side by side (data: NIAID ChemDB).

Common to all: tests in culture; organism: HIV-1

Lines come from different laboratories, so protocols vary.

smiles,read by,endpoint,cells,strain,mutations,result
N#CCn1ccc(=O)n(Cc2cccc(C#N)c2)c1=O,,EC50,PBMC,IIIB,,7.44 µM
CC(C)c1c(CO)cn(Cc2ccncc2)c1Sc1cc(Cl)cc(Cl)c1,cytopathic effect / MTT,EC90,MT-4,IIIB,,0.03 µM
C[C@@]1(CO)C=CC(c2cnc(N)[nH]c2=O)C1,XTT,EC50,CEM,,,13.1 µM
O=c1ccn(Cc2ccccc2)c(=O)n1Cc1ccccc1,,EC50,PBMC,IIIB,,11.1 µM
Nc1nc2c(ncn2COC(CO)CO)c(=O)[nH]1,ELISA,EC50,H9,IIIB,,>50 µM
Cc1cn([C@H]2C[C@H](N=[N+]=[N-])[C@@H](CO)O2)c(=O)[nH]c1=O,p24,EC50,,CC7 Clinical isolates,,0.01 µM
CC(C)c1nc(CN(C)C(=O)N[C@H](C(=O)N[C@@H](Cc2ccccc2)C[C@H](O)[C@H](Cc2ccccc2)NC(=O)OCc2cncs2)C(C)C)cs1,RT activity,EC50,CEM + CEM-SS,RF,,0.0355 µM
CC1=C(CCC(=O)O)c2cc3nc(cc4[nH]c(cc5[nH]c(cc1n2)c(C)c5C(COC(=O)c1ccc(N(C)C)cc1)OC(=O)c1ccc(N(C)C)cc1)c(C)c4C(COC(=O)c1ccc(N(C)C)cc1)OC(=O)c1ccc(N(C)C)cc1)C(C)=C3CCC(=O)O,cytopathic effect,EC50,MT-2,IIIB,,6.64 ± 3.02 µM
COC(=O)[C@@H](Cc1ccccc1)NC(=O)OC[C@H]1O[C@@H](n2cc(C)c(=O)[nH]c2=O)C[C@@H]1N=[N+]=[N-],XTT,EC50,PBMC,LAI,,2 µM
CC1(C)CC[C@]2(C(=O)O)CC[C@]3(C(=O)/C=C/c4ccc(O)c(O)c4)C(=CCC4[C@@]5(C)CC[C@H](O)C(C)(C)C5CC[C@]43C)[C@@H]2C1,,EC50,H9,,,1.53 µg/mL
Cc1cn([C@H]2C[C@H](N=[N+]=[N-])[C@@H](CO)O2)c(=O)[nH]c1=O,p24,EC50,PBMC,D34,,~0.01 µM
O=c1[nH]cnc2c1ncn2[C@H]1CC[C@@H](CO)O1,RT activity,EC50,MT-2,LAI,,0.652 µM
CC(n1ccc(=O)[nH]c1=O)C1(COCP(=O)(O)O)CC1,XTT,EC50,CEM,,,>100 µM
CCCCOCCOc1ccc(-c2ccc3c(c2)/C=C(/C(=O)Nc2ccc([S@@](=O)Cc4cncn4CCC)cc2)CCCN3CC(C)C)cc1,p24,EC50,PBMC,R5-18 R5 clinical isolate,,0.00044 µM
C[C@H](Cn1cnc2c(N)ncnc21)OCP(=O)(O)O,RT activity,EC50,MT-2,LAI,,0.008 µM
Nc1ccn([C@@H]2CC(CO)(CO)CS2)c(=O)n1,cytopathic effect,EC50,MT-4,,,19.3 µg/mL
CC1=C(CCC(=O)O)c2cc3nc(cc4[nH]c(cc5[nH]c(cc1n2)c(C)c5C(O)CO)c(C)c4C(O)CO)C(C)=C3CCC(=O)O,p24,EC50,MT-2,IIIB,,6.57 ± 0.28 µM
Nc1ccn([C@@H]2C[C@@H](O)[C@H](CO)O2)c(=O)n1,RT activity,EC50,PBMC,LAV,,>200 µM
CC(C)=CCOc1c2occc2cc2ccc(=O)oc12,luciferase,EC50,Jurkat cells,NL4-3 Recombinant VSV-pseudotyped,,<25 µM
Cc1ccc(NC(=O)Nc2ccc(-c3ccc(NC(=O)Nc4ccc(-c5ccc(NC(=O)Nc6ccc(-c7ccc(NC(=O)Nc8ccc(-c9ccc(NC(=O)Nc%10ccc(-c%11ccc(NC(=O)Nc%12ccc(-c%13ccc(NC(=O)Nc%14ccc(C)cc%14)cc%13S(=O)(=O)O)c(S(=O)(=O)O)c%12)cc%11S(=O)(=O)O)c(S(=O)(=O)O)c%10)cc9S(=O)(=O)O)c(S(=O)(=O)O)c8)cc7S(=O)(=O)O)c(S(=O)(=O)O)c6)cc5S(=O)(=O)O)c(S(=O)(=O)O)c4)cc3S(=O)(=O)O)c(S(=O)(=O)O)c2)cc1,p24,EC50,JM,GB8,,0.1 µM
Cc1cn([C@@H]2CC(CO)(CO)CS2)c(=O)[nH]c1=O,cytopathic effect,EC50,MT-4,,,>100 µg/mL
Nc1nc2c(ncn2[C@H]2CC[C@@H](CO)O2)c(=O)[nH]1,p24,EC50,H9,LAV,,<10 µM
CCC(C)[C@H](NC(=O)[C@H](C(C)C)[C@@H](O)[C@H](O)[C@H](CC1CCCCC1)NC(=O)CCOCCOc1ccccc1)C(=O)NCc1nc2ccccc2[nH]1,p24,EC50,PBMC,D34,,~0.001 µM
Nc1nc(=O)n([C@@H]2CS[C@H](CO)O2)cc1F,RT activity,EC50,MT-2,LAI,,0.025 µM
CCOC(=O)[C@@H](NC(=O)[C@@H](O)[C@H](O)C(=O)N[C@H](C(=O)OCC)C(C)C)C(C)C,cytopathic effect / MTT,EC50,PM1,Z2Z6,,>100 µM
CO[P@](=O)(c1cc(C)cc(/C=C/C#N)c1)c1c(C(N)=O)[nH]c2ccc(Cl)cc12,,EC50,MT-2,Clinical isolate,K103N/Y181C,0.0057 µM
Nc1ccn([C@H]2CC[C@@H](CO)O2)c(=O)n1,RT activity,EC50,MT-2,LAI,,0.034 µM
CC(n1cnc2c(=O)[nH]c(N)nc21)C1(COCP(=O)(O)O)CC1,XTT,EC50,CEM,,,27.7 µM
Nc1nc(Cl)nc2c1ncn2[C@@H]1C[C@@H](O)[C@H](CO)O1,RT activity,EC50,PBMC,LAV,,>10 µM
Cc1cc(C)cc(S(=O)(=O)c2c(C(N)=O)[nH]c3ccc(Cl)cc23)c1,p24,EC50,Macrophage,IIIB Ba-L,,0.115 µM
COc1cc(Cn2c(=O)ccn(CC#N)c2=O)cc(OC)c1,,EC50,PBMC,IIIB,,5.64 µM
CC1(C)C=Cc2c(ccc3cc(C(=O)c4ccncc4)c(=O)oc23)O1,,EC50,PBMC,IIIB,,<0.1 µM
O[C@H](CNCc1ccccc1)[C@H](O)CNCc1ccccc1,cytopathic effect / MTT,EC50,PM1,Z2Z6,,>100 µM
CC(C)Nc1cccnc1N1CCN(C(=O)c2cc3cc(NS(C)(=O)=O)ccc3[nH]2)CC1,cytopathic effect / MTS,EC50,MT-2,LAI,,0.025 µM
CC(C)c1c(COC(N)=O)cn(Cc2ccncc2)c1Sc1ccccc1,cytopathic effect / MTT,EC90,,,RT-K103N,>100 µM
OC1/C(=C/c2ccc(Cl)c(Cl)c2)COC/C1=C\c1ccc(Cl)c(Cl)c1,cytopathic effect / MTT,EC50,MT-4,,,>165 µM
Cc1cccc(C)c1OCC(=O)N[C@@H](Cc1ccccc1)[C@@H](O)C[C@H](Cc1ccccc1)NC(=O)[C@H](C(C)C)N1CCCNC1=O,RT activity,EC50,MT-2,LAI,,0.004 µM
CCN1C/C(=C\c2ccc(O)c(O)c2)C(=O)/C(=C/c2ccc(O)c(O)c2)C1,cytopathic effect / MTT,EC50,MT-4,,,>5 µM
Nc1ncnc2c1ncn2[C@H]1C=C[C@@H](OCP(=O)(O)O)O1,,EC50,MT-4,,,4.3 µM
COC(=O)N[C@H](C(=O)N[C@@H](Cc1ccccc1)[C@@H](O)CN(Cc1ccc(-c2ccccn2)cc1)NC(=O)[C@@H](NC(=O)OC)C(C)(C)C)C(C)(C)C,p24,EC50,PBMC,006,,0.00262 µM
Cc1cn([C@H]2C[C@H](N=[N+]=[N-])[C@@H](CO)O2)c(=O)[nH]c1=O,XTT,EC50,CEM,,,0.001 µM
CC(C)CN(C[C@@H](O)[C@H](Cc1ccccc1)NC(=O)O[C@H]1CCOC1)S(=O)(=O)c1ccc(N)cc1,RT activity,EC50,MT-2,LAI,,0.011 µM
Cc1cn([C@H]2C[C@H](N=[N+]=[N-])[C@@H](CO)O2)c(=O)[nH]c1=O,p24 / ELISA,EC90,MOLT4 + MOLT-4,IIIB,,<0.001 µg/mL
Cc1cc(C)nc(Cn2c(=O)ccn(Cc3c(F)cccc3F)c2=O)c1,,EC50,PBMC,IIIB,,6.4 µM
CC(C)(C)NC(=O)[C@@H]1C[C@@H]2CCCC[C@@H]2CN1C[C@@H](O)[C@H](Cc1ccccc1)NC(=O)[C@H](CC(N)=O)NC(=O)c1ccc2ccccc2n1,RT activity,EC50,CEM + CEM-SS,RF,,0.00528 µM
Nc1nc(=O)n([C@@H]2C[C@@H](O)[C@H](CO)O2)cc1Cl,RT activity,EC50,PBMC,LAV,,>100 µM
C#CCn1ccc(=O)n(Cc2cc(C)cc(C)c2)c1=O,,EC50,PBMC,IIIB,,1.08 µM
CC(C)=C1C=C(C(C)C)C(O)CC1,p24,EC50,Jurkat cells,IIIB,,>0.1 µM
O=C1/C(=C/c2ccc(Cl)c(Cl)c2)COC/C1=C\c1ccc(Cl)c(Cl)c1,cytopathic effect / MTT,EC50,MT-4,,,>200 µM
COC(=O)[C@H](Cc1c[nH]c2ccccc12)NP(=O)(O)OC[C@H]1O[C@@H](n2cc(C)c(=O)[nH]c2=O)C[C@@H]1N=[N+]=[N-],XTT,EC50,PBMC,LAI,,0.3 µM
CCOC(=O)[C@H](Cc1c[nH]c2ccccc12)NC(=O)[C@@H](O)[C@H](O)C(=O)N[C@@H](Cc1c[nH]c2ccccc12)C(=O)OCC,cytopathic effect / MTT,EC50,PM1,Z2Z6,,>100 µM
[N-]=[N+]=N[C@@H]1C[C@@H](n2cc(F)c(N)nc2=O)O[C@H]1CO,RT activity,EC50,PBMC,LAV,,0.05 µM
CC(C)(O)[C@H](O)COc1c2occc2cc2ccc(=O)oc12,luciferase,EC50,MT-2,NL4-3 Recombinant VSV-pseudotyped,,<50 µM
C[C@@H](NC[C@@H](O)[C@H](O)CN[C@H](C)c1ccccc1)c1ccccc1,cytopathic effect / MTT,EC50,PM1,Z2Z6,,2 µM
Cc1cn([C@@H]2C[C@@H](F)[C@H](CO)O2)c(=O)[nH]c1=O,RT activity,EC50,PBMC,LAV,,>100 µM
Cc1cn([C@H]2CC[C@@H](CO)O2)c(=O)[nH]c1=O,p24,EC50,ATH8,LAV,,200 µM
Cc1cccc(Cn2c(=O)ccn(CC#N)c2=O)c1,,EC50,PBMC,IIIB,,6.7 µM
Cc1c(O)cccc1C(=O)N[C@@H](CSc1ccccc1)[C@H](O)CN1C[C@H]2CCCC[C@H]2C[C@H]1C(=O)NC(C)(C)CO,cytopathic effect / MTT,EC95,CEM + CEM-SS,RF,,0.1541 µM
C[C@@]1(CO)C=CC(c2c[nH]c(=O)[nH]c2=O)C1,XTT,EC50,CEM,,,72.1 µM
O=c1ccn(Cc2c(F)cccc2F)c(=O)[nH]1,,EC50,PBMC,IIIB,,>197 µM
C=C(COCP(=O)(O)O)C(C)n1ccc(N)nc1=O,XTT,EC50,CEM,,,67.1 µM
CC(C)c1c(COC(N)=O)cn(Cc2ccncc2)c1Sc1cc(Cl)cc(Cl)c1,cytopathic effect / MTT,EC90,MT-4,IIIB,,1 µM
Cc1cn([C@@H]2C[C@@H](N=[N+]=[N-])[C@H](CO)O2)c(=O)[nH]c1=O,RT activity,EC50,PBMC,LAV,,>100 µM
Cc1cc(C#N)cc(C)c1Nc1ccnc(Nc2ccc(C#N)cc2)n1,syncytia,EC50,MT-4,IIIB,,0.0004 µM
C=C(COCP(=O)(O)O)C(C)n1cc(C)c(=O)[nH]c1=O,XTT,EC50,CEM,,,>100 µM
Nc1ccn([C@H]2CC[C@@H](CO)O2)c(=O)n1,p24,EC50,ATH8,LAV,,0.3 µM
CON(Cc1ccc(F)cc1)C(=O)/C=C(\O)C(=O)O,RT activity,EC50,MT-2,LAI,,0.079 µM
O=C1/C(=C/c2ccc(O)c([N+](=O)[O-])c2)CN(Cc2ccccc2)C/C1=C\c1ccc(O)c([N+](=O)[O-])c1,cytopathic effect / MTT,EC50,MT-4,,,>19 µM
COC(=O)[C@H](Cc1ccccc1)NC(=O)OC[C@H]1O[C@@H](n2cc(C)c(=O)[nH]c2=O)C[C@@H]1N=[N+]=[N-],XTT,EC50,PBMC,LAI,,20 µM
O=c1[nH]cc(C2C=CC(CO)(CO)C2)c(=O)[nH]1,XTT,EC50,CEM,,,34.8 µM
Cc1cn([C@H]2C[C@H](F)[C@@H](CO)O2)c(=O)[nH]c1=O,ELISA,EC50,H9,IIIB,,0.016 µM
C[C@H](NC(=O)[C@@H](O)[C@H](O)C(=O)N[C@@H](C)c1ccccc1)c1ccccc1,cytopathic effect / MTT,EC50,PM1,Z2Z6,,>100 µM
CNC(=O)[C@@H](Cc1ccccc1)NC(=O)OC[C@H]1O[C@@H](n2cc(C)c(=O)[nH]c2=O)C[C@@H]1N=[N+]=[N-],XTT,EC50,PBMC,LAI,,1.8 µM
Nc1ncnc2c1ncn2[C@@H]1C[C@@H](O)[C@H](CO)O1,RT activity,EC50,PBMC,LAV,,>10 µM
CC(n1ccc(N)nc1=O)C1(COCP(=O)(O)O)CC1,XTT,EC50,CEM,,,37.2 µM
CCC(C)[C@H](NC(=O)[C@H](C(C)C)[C@@H](O)[C@H](O)[C@H](CC1CCCCC1)NC(=O)c1ccccc1OCCOCCOC)C(=O)NCc1nc2ccccc2[nH]1,p24,EC50,PBMC,D34,,0.001–0.01 µM
Nc1nc(=O)n([C@@H]2C[C@@H](O)[C@H](CO)O2)cc1F,RT activity,EC50,PBMC,LAV,,>100 µM

7 of the rows above, restated:

{"smiles": "O=C1/C(=C/c2ccc(O)c([N+](=O)[O-])c2)CN(Cc2ccccc2)C/C1=C\\c1ccc(O)c([N+](=O)[O-])c1", "read by": "cytopathic effect / MTT", "endpoint": "EC50", "cells": "MT-4", "result": ">19 µM"}
{"smiles": "Cc1cn([C@@H]2C[C@@H](N=[N+]=[N-])[C@H](CO)O2)c(=O)[nH]c1=O", "read by": "RT activity", "endpoint": "EC50", "cells": "PBMC", "strain": "LAV", "result": ">100 µM"}
{"smiles": "N#CCn1ccc(=O)n(Cc2cccc(C#N)c2)c1=O", "endpoint": "EC50", "cells": "PBMC", "strain": "IIIB", "result": "7.44 µM"}
{"smiles": "CC(C)c1nc(CN(C)C(=O)N[C@H](C(=O)N[C@@H](Cc2ccccc2)C[C@H](O)[C@H](Cc2ccccc2)NC(=O)OCc2cncs2)C(C)C)cs1", "read by": "RT activity", "endpoint": "EC50", "cells": "CEM + CEM-SS", "strain": "RF", "result": "0.0355 µM"}
{"smiles": "Nc1nc(Cl)nc2c1ncn2[C@@H]1C[C@@H](O)[C@H](CO)O1", "read by": "RT activity", "endpoint": "EC50", "cells": "PBMC", "strain": "LAV", "result": ">10 µM"}
{"smiles": "CCN1C/C(=C\\c2ccc(O)c(O)c2)C(=O)/C(=C/c2ccc(O)c(O)c2)C1", "read by": "cytopathic effect / MTT", "endpoint": "EC50", "cells": "MT-4", "result": ">5 µM"}
{"smiles": "Cc1cc(C)nc(Cn2c(=O)ccn(Cc3c(F)cccc3F)c2=O)c1", "endpoint": "EC50", "cells": "PBMC", "strain": "IIIB", "result": "6.4 µM"}

ECn is the concentration giving n% inhibition of infection, replication or growth. An empty or dashed field is not shown. a–b is a range or a potency band.